The record followed here is patent publication US20240368065A1 (HELMHOLTZ-ZENTRUM FÜR INFEKTIONSFORSCHUNG GMBH, priority 2021, published 2024).

The series is described as follows: CA concentrations in extracted mouse organs (LC-MS/MS). Particulars: endogenous levels, compared with the other itaconate isomers. The format is in vivo, C57BL/6J mice.

For `C/C(=C/C(=O)O)C(=O)O` [citraconic acid], the Quantification in brain result is “the only one that could be quantified in brain, albeit at very low levels”.
